According to PMC8876323, “Heat Shock Transcription Factor CgHSF1 Is Required for Melanin Biosynthesis, Appressorium Formation, and Pathogenicity in Colletotrichum gloeosporioides”:

System: T1, CgHSF1 (Colletotrichum gloeosporioides)
T1 sequence: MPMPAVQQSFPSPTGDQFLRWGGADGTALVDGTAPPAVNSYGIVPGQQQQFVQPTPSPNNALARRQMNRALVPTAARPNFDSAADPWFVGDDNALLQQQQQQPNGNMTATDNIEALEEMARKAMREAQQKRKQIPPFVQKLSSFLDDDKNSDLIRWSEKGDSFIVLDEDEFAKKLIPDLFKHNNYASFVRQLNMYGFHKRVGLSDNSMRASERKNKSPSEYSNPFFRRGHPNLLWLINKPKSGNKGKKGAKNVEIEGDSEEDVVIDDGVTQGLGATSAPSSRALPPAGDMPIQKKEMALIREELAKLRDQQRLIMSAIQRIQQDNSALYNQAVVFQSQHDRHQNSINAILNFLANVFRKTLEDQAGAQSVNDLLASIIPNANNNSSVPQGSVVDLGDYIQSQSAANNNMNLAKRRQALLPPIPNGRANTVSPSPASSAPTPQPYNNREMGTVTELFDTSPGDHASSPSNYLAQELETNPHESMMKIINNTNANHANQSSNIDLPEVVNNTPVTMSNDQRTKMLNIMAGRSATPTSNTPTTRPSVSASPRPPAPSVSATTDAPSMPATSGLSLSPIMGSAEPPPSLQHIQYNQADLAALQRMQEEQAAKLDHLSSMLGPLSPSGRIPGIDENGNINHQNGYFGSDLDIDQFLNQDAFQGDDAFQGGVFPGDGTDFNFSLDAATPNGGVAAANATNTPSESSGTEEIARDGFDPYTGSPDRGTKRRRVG
Assay: EMSA
Conditions: recombinant protein

Sequence	binding result
GACGACAAATGCAAGAAGTTCGGACCGTTGCCTG (double strand) [SCD-probe1]	binds
TTGTCAGCTCGTCTGGAATTCGGCCGGCCGTGGA (double strand) [SCD-probe2]	binds

Construct, isoform or probe ends are uncertain for at least one entry. At least one verdict was read from the data and is not stated in words by the source. Protein sequences can lack the tags named with them.
